{"source": "patent US20080293727A1", "about": "“Novel sulfonamide inhibitors of aspartyl protease” (priority 1992, published 2008)", "target": "HIV-1 protease (Human immunodeficiency virus type 1 group M subtype B, UniProt P04585)", "assay": "Inhibition constants against HIV-1 protease (method of Pennington et al.)", "type": "biochemical", "details": "read-out: Ki value", "data": [{"smiles": "COc1ccc(S(=O)(=O)N(Cc2ccco2)C[C@@H](O)[C@H](Cc2ccccc2)NC(=O)O[C@H]2CCOC2)cc1", "values": [{"measurement": "Ki", "result": 20, "unit": "nM"}]}]}
